A mixed list of measured activities; the numbers were collected in NIAID ChemDB.

All rows: cytotoxicity tests; cells: MT-4; measure: CC50

Rows are shuffled and stem from different studies. CCn: concentration that lowers growth or viability of the cells by n%.

{"compound": "Cc1ccc(C)c(CS(=O)(=O)c2cccc[n+]2[O-])c1", "method": "MTT", "value": "34 µg/mL"}
{"compound": "CC(=O)N1CCn2c(nc(C(=O)NCc3ccc(F)cc3)c(O)c2=O)C(N(C)C(=O)C(=O)N(C)C)C1", "method": "microscopy", "value": ">1 µM"}
{"compound": "FC(F)(F)c1cccc(NC(=S)Nc2nc3ccccc3s2)c1", "method": "MTT", "value": "5.8 µM"}
{"compound": "CCN(CC)C(=O)c1cccn1S(=O)(=O)c1cc(Cl)ccc1N", "method": "MTT", "value": "146 µM"}
{"compound": "C=C(C)CNC(=S)Nc1nc2ccccc2s1", "method": "MTT", "value": "100 µM"}
{"compound": "CCOCn1c(Cc2ccccc2)c(C(C)C)c(=O)[nH]c1=O", "value": ">100 µM"}
{"compound": "Fc1cccc(F)c1CCNC(=S)Nc1ccc(Br)c(Br)n1", "value": ">25 µg/mL"}
{"compound": "C=Cn1cc(C(=O)O)c(=O)c2cc(N)c(N3CCN(c4ccccn4)CC3)cc21", "method": "MTT", "value": "0.3 µM"}
{"compound": "Cc1nc(CC(=O)NN)nn1C", "value": "98.4 µg/mL"}
{"compound": "CC1OC(OCC2OC(Oc3c(-c4cc(O)c(O)c(O)c4)oc4cc(O)cc(O)c4c3=O)C(O)C(O)C2O)C(O)C(O)C1O", "method": "MTT", "value": ">300 µM"}
{"compound": "Fc1cccc(F)c1CCNC(=S)Nc1ccc(Br)c(Cl)n1", "value": ">25 µg/mL"}
{"compound": "Fc1ccc(Nc2nnc(Cc3ccccn3)s2)cc1Cl", "method": "MTT", "value": ">100 µM"}
{"compound": "COCCOC(=O)c1cccn1S(=O)(=O)c1cc(Cl)ccc1[N+](=O)[O-]", "method": "MTT", "value": "12 µM"}
{"compound": "CN(C)C(=O)C(=O)N(C)C1CN(C2CCCC2)CCn2c1nc(C(=O)NCc1ccc(F)cc1)c(O)c2=O", "method": "microscopy", "value": ">1 µM"}
{"compound": "CCn1nc(CC(=O)N/N=C/c2ccccc2)nc1C", "value": "125 µg/mL"}
{"compound": "Cc1ccc(C)c(CS(=O)(=O)c2ccccn2)c1", "method": "MTT", "value": "46 µg/mL"}
{"compound": "Clc1cccc(Nc2nnc(Cc3ccccn3)s2)c1", "method": "MTT", "value": ">100 µM"}
{"compound": "Nc1ccc(Cl)cc1S(=O)(=O)n1cccc1C(=O)Oc1ccccc1", "method": "MTT", "value": "24 µM"}
{"compound": "CC1=C(C(=O)Nc2ccc(Cl)cc2C)C2=NN=C(N)C2C(=O)N1", "method": "MTT", "value": "68.6 µg/mL"}
{"compound": "Nc1ccc(Cl)cc1S(=O)(=O)n1cccc1C(=O)OC1CCCCC1", "method": "MTT", "value": ">200 µM"}
{"compound": "Nn1cc(C(=O)O)c(=O)c2cc(O)c(N3CCN(c4cccc(C(F)(F)F)c4)CC3)cc21", "method": "MTT", "value": "20.96 µM"}
{"compound": "Cc1cccc(CS(=O)(=O)c2cccc[n+]2[O-])c1", "method": "MTT", "value": "30 µg/mL"}
{"compound": "CCOC(=O)c1cccn1S(=O)(=O)c1cc(Cl)ccc1Cl", "method": "MTT", "value": ">200 µM"}
{"compound": "S=c1[nH]nc(Cc2nc3n(n2)CCCCC3)o1", "value": "68.78 µg/mL"}
{"compound": "NNC(=O)c1cccn1S(=O)(=O)c1cc(Cl)ccc1[N+](=O)[O-]", "method": "MTT", "value": ">200 µM"}
{"compound": "O=C(Cc1ccccn1)NNC(=S)Nc1cccc(Br)c1", "method": "MTT", "value": ">100 µM"}
{"compound": "C/C=C\\CN1C(=O)c2cccn2S(=O)(=O)c2ccc(Cl)cc21", "value": "300 µM"}
{"compound": "CC(C)COC(=O)c1cccn1S(=O)(=O)c1cc(Cl)ccc1[N+](=O)[O-]", "method": "MTT", "value": "24 µM"}
{"compound": "CC(C)=Nn1cc(C(=O)O)c(=O)c2cc(N)c(N3CCN(c4ccccn4)CC3)cc21", "method": "MTT", "value": "1.11 µM"}
{"compound": "CO[C@@]12C[C@]3(C)CCC[C@H](C)[C@@]3(O)CC1=C(C)C(=O)O2", "method": "MTT", "value": "148.1 µg/mL"}
{"compound": "CC1=C(C(=O)Nc2ccccc2F)C2=NN=C(N)C2C(=O)N1", "method": "MTT", "value": "82.9 µg/mL"}
{"compound": "N#Cc1ccc(N2C(=O)CS/C2=N\\c2nc3ccccc3s2)cc1", "method": "MTT", "value": "100 µM"}
{"compound": "Nc1cc2c(=O)c(C(=O)O)cn(N)c2cc1N1CCN(c2nc3ccccc3s2)CC1", "method": "MTT", "value": "0.17 µM"}
{"compound": "CC1(C)[C@@H](O[C@H]2O[C@H](C(=O)O)[C@@H](O)[C@H](O)[C@H]2O[C@@H]2O[C@H](C(=O)O)[C@@H](O)[C@H](O)[C@H]2O)CC[C@]2(C)[C@H]3C(=O)C=C4[C@@H]5C[C@@](C)(C(=O)O)CC[C@]5(C)CC[C@@]4(C)[C@]3(C)CC[C@@H]12", "value": "2400 µM"}
{"compound": "Fc1cccc(F)c1CCNC(=S)Nc1ncc(Br)cc1Cl", "value": "15.7 µg/mL"}
{"compound": "CN1C(=O)[C@@H](c2cc(Cl)c(O)c(Cl)c2)NC(=O)[C@@H]2NC(=O)[C@H](c3cc(Cl)c(O)c(Cl)c3)NC(=O)[C@@H](NC(=O)C(=O)c3cc(Cl)c(O)c(Cl)c3)Cc3c[nH]c4cc(ccc34)-c3cc2cc(c3O)Oc2ccc(cc2)C[C@H]1C(=O)N[C@@H](C(=O)O)c1ccc(O)cc1", "value": ">400 µg/mL"}
{"compound": "COc1ccc(-n2c(Cc3nc4n(n3)CCCC4)n[nH]c2=S)cc1", "value": "105.2 µg/mL"}
{"compound": "Cc1cn([C@H]2C[C@H](N=[N+]=[N-])[C@@H](CO)O2)c(=O)[nH]c1=O", "method": "MTT", "value": "45 µM"}
{"compound": "CC(C)=CCN1C(=O)c2cccn2S(=O)(=O)c2cc(Cl)ccc21", "value": ">300 µM"}
{"compound": "CC1=C(C(=O)Nc2ccc(F)cc2)C2=NN=C(N)C2C(=O)N1", "method": "MTT", "value": "83.9 µg/mL"}
{"compound": "N#Cc1cccn1S(=O)(=O)c1cc(Cl)ccc1N", "method": "MTT", "value": "13 µM"}
{"compound": "Cc1cc(C(C)(O)c2ccc(F)cc2)nc(Nc2ccc(C#N)cc2)n1", "method": "MTT", "value": "61.5 µM"}
{"compound": "Fc1cccc(F)c1CCNC(=S)Nc1ccc(Cl)cn1", "value": ">25 µg/mL"}
{"compound": "CN1c2ccccc2C2C1C=C(C#N)C(=O)N2c1ccc([N+](=O)[O-])cc1", "method": "trypan blue", "value": ">50 µM"}
{"compound": "Cc1cccc(NC(=S)NCCc2c(F)cccc2F)n1", "value": ">123 µg/mL"}
{"compound": "CC1=C(C(=O)Nc2ccccc2Cl)C2=NN=C(N)C2C(=O)N1", "method": "MTT", "value": "48.7 µg/mL"}
{"compound": "N#CC1=CC2Nc3ccccc3C2N(c2ccc([N+](=O)[O-])cc2)C1=O", "method": "trypan blue", "value": "50 µM"}
{"compound": "COc1ccc(NC(=S)Nc2nc3ccccc3s2)cc1", "method": "MTT", "value": "68 µM"}
{"compound": "CC(=O)N1CCn2c(nc(C(=O)NCc3ccc(F)cc3)c(O)c2=O)C1COCc1ccccc1", "method": "microscopy", "value": ">10 µM"}
{"compound": "O=[N+]([O-])c1ccc(NC(=S)Nc2nc3ccccc3s2)cc1", "method": "MTT", "value": ">100 µM"}
{"compound": "CC1(C)c2nc(C(=O)NCc3ccc(F)cc3)c(O)c(=O)n2CCN1CC#N", "method": "microscopy", "value": ">1 µM"}
{"compound": "Cc1ccc(Cl)c(NC(=S)NNC(=O)Cc2ccccn2)c1", "method": "MTT", "value": ">100 µM"}
{"compound": "S=C(Nc1ccc(I)cc1)Nc1nc2ccccc2s1", "method": "MTT", "value": "9.5 µM"}
{"compound": "CCNC(=O)c1cccn1S(=O)(=O)c1cc(Cl)ccc1[N+](=O)[O-]", "method": "MTT", "value": "16.6 µM"}
{"compound": "Cc1cn([C@H]2C[C@H](N=[N+]=[N-])[C@@H](CO)O2)c(=O)[nH]c1=O", "method": "MTT", "value": "140 µM"}
{"compound": "S=c1[nH]nc(Cc2ccccn2)n1-c1ccc(Cl)c(Cl)c1", "method": "MTT", "value": ">100 µM"}
{"compound": "COc1ccc(C)cc1CS(=O)(=O)c1cccc[n+]1[O-]", "method": "MTT", "value": "≥100 µg/mL"}
{"compound": "CCn1nc(-c2ccc(Cn3ccc4ccccc43)cc2)nc1C", "value": "0.92 µg/mL"}
{"compound": "COC(=O)C1C(O)C[C@@]2(O)CC(O)C(O)CCC(O)CC(O)CC(O)CC(=O)O[C@@H](C)[C@H](C)[C@H](O)[C@@H](C)/C=C/C=C/C=C/C=C/C=C/C=C/C=C/[C@H](O[C@@H]3O[C@H](C)[C@@H](O)[C@H](NC(=NCC[N+]4(C)CCOCC4)NC4CCCCC4)[C@@H]3O)CC1O2", "value": ">20 µg/mL"}
{"compound": "Cc1ccc(-n2c(Cc3ccccn3)n[nH]c2=S)cc1Cl", "method": "MTT", "value": ">100 µM"}
{"compound": "C=Cn1cc(C(=O)O)c(=O)c2ccc(N3CCN(c4cccc(C(F)(F)F)c4)CC3)cc21", "method": "MTT", "value": "5.97 µM"}
{"compound": "CCC(C)Sc1nc(Cc2cc(C)cc(C)c2)cc(=O)[nH]1", "method": "MTT", "value": "133 µM"}
{"compound": "CC(C)N1C(=O)c2cccn2S(=O)(=O)c2cc(Cl)ccc21", "value": ">300 µM"}
{"compound": "FC(F)(F)c1cccc(-n2c(Cc3ccccn3)n[nH]c2=S)c1", "method": "MTT", "value": ">100 µM"}